Anti-infective test results gathered from many reports (values: NIAID ChemDB through PubChem).

Shared fields: growth or infection tests; organism: Candida albicans; measure: MIC

Blank or dashed fields: not listed here. Rows are shuffled and stem from different studies.

smiles | strain or isolate | value
C[C@@H](n1cnc2c(Cl)cc(Cl)cc2c1=O)[C@](O)(Cn1cncn1)c1ccc(F)cc1F | 60 strains | 0.07 µg/mL
CC(/C=C/C=C(\C)C(O)C(C)C(=O)O[C@H]1C[C@@H](C)C=C2C=C[C@@](C)(O)[C@](C)(C(=O)CCO)[C@H]21)=C\C=C\C(=O)O | 579A | 50 µg/mL
CCCCCOc1ccc(-c2ccc(-c3ccc(C(=O)N[C@H]4CCCNC(=O)C5C[C@H](N)N5C(=O)C(C(C)O)NC(=O)C(CCc5ccc(O)cc5)NC(=O)C5C[C@@H](O)CN5C(=O)C(C(C)O)NC4=O)cc3)cc2)cc1 | ATCC 10231 | 0.2 µg/mL
O[C@](Cn1cncn1)(Cn1cnc(/C=C/c2ccc(OCC(F)(F)C(F)F)cc2)n1)c1ccc(F)cc1F | Isolate 02-22 | 4 µg/mL
CCCCCOc1ccc(-c2ccc(-c3ccc(C(=O)N[C@H]4CCCNC(=O)C5C[C@H](NC(=O)NCCC(C)C)CN5C(=O)C(C(C)O)NC(=O)C(CCc5ccc(O)cc5)NC(=O)C5C[C@@H](O)CN5C(=O)C(C(C)O)NC4=O)cc3)cc2)cc1 | ATCC 62376 | 12.5 µg/mL
CCCCCOc1ccc(-c2ccc(-c3ccc(C(=O)N[C@H]4CCCNC(=O)[C@@H]5C[C@H](N=C(N)N)CN5C(=O)[C@H]([C@@H](C)O)NC(=O)[C@H](CCc5ccc(O)cc5)NC(=O)[C@@H]5C[C@@H](O)CN5C(=O)[C@H]([C@@H](C)O)NC4=O)cc3)cc2)cc1 | ATCC 38247 | 0.39 µg/mL
O/N=C(\c1ccc(Cl)cc1)c1oc2ccccc2c1Cn1cncn1 | Clinical isolate | 25 µg/mL
C[C@@H](n1cnc2cc(S(=O)(=O)c3ccccc3)ccc2c1=O)[C@](O)(Cn1cncn1)c1ccc(F)cc1F | 76 strains | 0.15 µg/mL
OC(Cn1cncn1)(Cn1nnnc1CCN1CCN(c2ccccc2Cl)CC1)c1ccc(F)cc1F | V-01-191A-261 (resistant) | 4 µg/mL
C[C@@H](SC1COC(/C=C/C=C/c2ccc(C#N)cc2F)OC1)[C@](O)(Cn1cncn1)c1ccc(F)cc1F | CAL-0066 | 0.03 µg/mL
CCCCCOc1ccc(-c2ccc(-c3ccc(C(=O)N[C@H]4CCCNC(=O)[C@@H]5C[C@H](N)CN5C(=O)[C@H](Cc5ccc(O)cc5)NC(=O)C(CCc5ccc(O)cc5)NC(=O)[C@@H]5C[C@@H](O)CN5C(=O)[C@H]([C@@H](C)O)NC4=O)cc3)cc2)cc1 | ATCC 38247 | 1.56 µg/mL
CCCCCOc1ccc(-c2ccc(-c3ccc(C(=O)N[C@H]4CCCNC(=O)C5C[C@H](N)CN5C(=O)C(C(C)O)NC(=O)C(OCc5ccccc5)NC(=O)C5CC(O)CN5C(=O)C(C(C)O)NC4=O)cc3)cc2)cc1 | ATCC 62376 | 1.56 µg/mL
CCCCCCCOc1ccc(N2CCN(c3ccc(C(=O)N[C@H]4CCCNC(=O)[C@@H]5C[C@H](N)CN5C(=O)[C@H]([C@@H](C)O)NC(=O)[C@H](Cc5ccc(CO)cc5)NC(=O)[C@@H]5CCCN5C(=O)[C@H](C(C)O)NC4=O)cc3)CC2)cc1 | ATCC 62376 | 12.5 µg/mL
C[C@H]1[C@H](O)[C@@H](C)/C=C/C=C/C=C/C=C/C=C/C=C/C=C/[C@H](O[C@@H]2O[C@H](C)[C@@H](O)[C@H](N)[C@@H]2O)C[C@@H]2O[C@](O)(C[C@@H](O)C[C@@H](O)CC[C@H](O)[C@@H](O)C[C@@H](O)CC(=O)O[C@H]1C)C[C@H](O)[C@H]2C(=O)O | ATCC 64548 | 0.5 µg/mL
Nc1ncnc2c1ncn2[C@@H]1O[C@H](C(=O)O)[C@@H](NC(=O)C(N)CSc2ccccc2)[C@H]1O | FP633 | 3.1 µg/mL
C[C@@H](O)[C@@H]1NC(=O)[C@H](CCc2ccc(O)cc2)NC(=O)[C@@H]2C[C@@H](O)CN2C(=O)[C@H]([C@@H](C)O)NC(=O)[C@@H](NC(=O)c2ccccc2)CCCNC(=O)[C@@H]2C[C@H](N)CN2C1=O | ATCC 62376 | >100 µg/mL
c1ccc(CO/N=C2/c3ccccc3OCC2n2cncn2)cc1 | ATCC 10231 | 64 µg/mL
Nc1ncc(CC(N)C(=O)N[C@H]2[C@@H](O)[C@H](n3cnc4c(N)ncnc43)O[C@@H]2C(=O)O)s1 | FP633 | 6.2 µg/mL
COc1cc(O)c2c(c1)C(=O)c1c(cc3c(c1O)-c1c(cc(C)c(C(=O)NC(C)C(=O)O)c1O)[C@H](OC1OC(C)C(N(C)C)C(OC4OCC(O)C(O)C4O)C1O)[C@H]3O)C2=O | A9540 | 12.5 µg/mL
C[C@@H](n1cnc2cc(N(C)C)ccc2c1=O)[C@](O)(Cn1cncn1)c1ccc(F)cc1F | 406 strains | ≤0.03 µg/mL
COc1cc(O)c2c(c1)C(=O)c1c(cc3c(c1O)-c1c(cc(C)c(C(=O)NC(CO)C(=O)O)c1O)[C@H](OC1OC(C)C(O)C(OC4OCC(O)C(O)C4O)C1O)C3O)C2=O | DARL82/003 (azole-resistant) | 2 µg/mL
COc1ccccc1N1CCN(CCc2nnn(CC(O)(Cn3cncn3)c3ccc(F)cc3F)n2)CC1 |  | 8 µg/mL
CCCCCCCCOc1ccc(N2CCN(c3ccc(C(=O)N[C@H]4CCCNC(=O)[C@@H]5C[C@H](N)CN5C(=O)[C@H](CCN)NC(=O)[C@H](CCc5ccc(O)cc5)NC(=O)[C@@H]5C[C@@H](O)CN5C(=O)[C@H]([C@@H](C)O)NC4=O)cc3)CC2)cc1 | ATCC 38247 | 0.39 µg/mL
CCC(C)n1ncn(-c2ccc(N3CCN(c4ccc(OC[C@H]5CO[C@](Cn6cncn6)(c6ccc(Cl)cc6Cl)O5)cc4)CC3)cc2)c1=O | AD | 2 µg/mL
COc1ccc(N2CCN(c3ccc(C(=O)N[C@H]4CCCNC(=O)C5C[C@H](N)CN5C(=O)C(C(C)O)NC(=O)C(CCc5ccc(O)cc5)NC(=O)C5C[C@@H](O)CN5C(=O)C(C(C)O)NC4=O)cc3)CC2)cc1 | ATCC 62376 | 1.56 µg/mL
Brc1ccc(CO/N=C2\c3ccccc3OCC2n2cncn2)cc1 | ATCC 10231 | 8 µg/mL
O=C(c1ccccc1)c1oc2ccccc2c1Cn1ccnc1 | Clinical isolate | 25 µg/mL
Cc1ccc(C(Cn2ccnc2)OC/C=C/c2ccccc2)cc1 | 3M | 128 µg/mL
CCCCCOc1ccc(-c2ccc(-c3ccc(C(=O)N[C@H]4CCCNC(=O)C5C[C@H](O)N5C(=O)C(C(C)O)NC(=O)C(CCc5ccc(O)cc5)NC(=O)C5C[C@@H](O)CN5C(=O)C(C(C)O)NC4=O)cc3)cc2)cc1 | ATCC 10231 | 0.78 µg/mL
C[C@H](n1nnc(CCN2CCN(c3ccccc3Cl)CC2)n1)[C@](O)(Cn1cncn1)c1ccc(F)cc1F |  | 4 µg/mL
COc1ccc(C[C@H](NC(=O)CN)C(=O)N[C@H]2[C@@H](O)[C@H](n3cnc4c(N)ncnc43)O[C@@H]2C(=O)O)cc1 | FP633 | >100 µg/mL
O/N=C(\c1ccccc1)c1oc2ccc(Cl)cc2c1Cn1cncn1 | NRRL Y-27077 | 25 µg/mL
C[C@H](n1nnnc1CCN1CCN(c2ccccn2)CC1)[C@](O)(Cn1cncn1)c1ccc(F)cc1F | V-01-191A-261 (resistant) | 8 µg/mL
CSCCCC(N)C(=O)N[C@H]1[C@@H](O)[C@H](n2cnc3c(N)ncnc32)O[C@@H]1C(=O)O | FP633 | 25 µg/mL
Cc1c(C(=O)c2ccc(Cl)cc2)oc2ccccc12 | Clinical isolate | 25 µg/mL
Clc1ccc(C(Cn2ccnc2)OC/C=C/c2ccccc2)c(Cl)c1 | PR1 | 4 µg/mL
CCCCCN[C@H]1CCCNC(=O)[C@@H]2C[C@H](N)CN2C(=O)[C@H]([C@@H](C)O)NC(=O)[C@H](CCc2ccc(O)cc2)NC(=O)[C@@H]2C[C@@H](O)CN2C(=O)[C@H]([C@@H](C)O)NC1=O | ATCC 62376 | 0.2 µg/mL
C[C@H](n1nnnc1CCN1CCN(c2ccc([N+](=O)[O-])cc2)CC1)[C@](O)(Cn1cncn1)c1ccc(F)cc1F | V-01-191A-261 (resistant) | 2 µg/mL
Cc1ccc(C(Cn2ccnc2)OCc2ccc(-c3ccccc3)cc2)cc1 | Y0109 | 64 µg/mL
Clc1ccc(CO/N=C2\c3ccccc3OCC2n2cncn2)cc1 | ATCC 10231 | 8 µg/mL
Cc1c(O)cccc1C(=O)N[C@@H](CSc1ccccc1)[C@H](O)CN1C[C@H]2CCCC[C@H]2C[C@H]1C(=O)NC(C)(C)C | I161A | 64 µg/mL
C[C@@H](n1cnc2cc(Cl)ccc2c1=O)[C@](O)(Cn1cncn1)c1ccc(F)cc1F | 60 strains | ≤0.03 µg/mL
Cc1ccc(C(Cn2ccnc2)OCc2cccc3ccccc23)cc1 | 3M | >128 µg/mL
CCCCCOc1ccc(-c2ccc(-c3ccc(C(=O)N[C@H]4CCCNC(=O)C5C[C@H](NC6CCNCC6)CN5C(=O)C(C(C)O)NC(=O)C(CCc5ccc(O)cc5)NC(=O)C5C[C@@H](O)CN5C(=O)C(C(C)O)NC4=O)cc3)cc2)cc1 | ATCC 10231 | 0.39 µg/mL
Clc1ccc(C(Cn2ccnc2)OCc2cccc3ccccc23)cc1 | CA12 | 128 µg/mL
CCC(C)CC(C)CCCCCCCCC(=O)NC1C[C@H](O)[C@@H](O)NC(=O)[C@@H]2[C@@H](O)[C@@H](C)CN2C(=O)[C@H]([C@H](O)CC(N)=O)NC(=O)[C@H](C(O)[C@H](O)c2ccc(O)cc2)NC(=O)[C@@H]2C[C@@H](O)CN2C(=O)[C@H]([C@@H](C)O)NC1=O | MY1208 | 2 µg/mL
O=C(c1ccc(Cl)cc1)c1oc2ccccc2c1Cn1cncn1 | NRRL Y-27077 | 25 µg/mL
CCCCCC12CCC(C(=O)N[C@H]3CCCNC(=O)C4C[C@H](N)CN4C(=O)C(C(C)O)NC(=O)C(CCc4ccc(O)cc4)NC(=O)C4C[C@@H](O)CN4C(=O)C(C(C)O)NC3=O)(CC1)CC2 | ATCC 10231 | 3.12 µg/mL
CCCCCCCCOc1ccc(N2CCN(c3ccc(C(=O)N[C@H]4CCCNC(=O)[C@@H]5C[C@H](N=C(N)N)CN5C(=O)[C@H](CCN)NC(=O)[C@H](CCc5ccc(O)cc5)NC(=O)[C@@H]5C[C@@H](O)CN5C(=O)[C@H]([C@@H](C)O)NC4=O)cc3)CC2)cc1 | ATCC 38247 | 0.78 µg/mL
Nc1ncnc2c1ncn2[C@@H]1O[C@H](C(=O)O)[C@@H](NC(=O)[C@H](N)CSC2C=CCCC2)[C@H]1O | FP633 | 12.5 µg/mL
C[C@@H](n1cnc2cc(OCC(F)(F)C(F)F)ccc2c1=O)[C@](O)(Cn1cncn1)c1ccc(F)cc1F | 76 strains | 0.07 µg/mL
Clc1ccc(CO/N=C2/c3ccc(Cl)cc3OCC2n2cncn2)c(Cl)c1 | ATCC 10231 | 4 µg/mL
CC(C)N=C(N)c1ccc2nc(-c3ccc4c(c3)Cc3cc(-c5nc6ccc(C(N)=NC(C)C)cc6[nH]5)ccc3-4)[nH]c2c1 | Isolate 17 (strain 12-99) | 1.56 µg/mL
CCCC(O)C/C=C\C=C\C(=O)OC[C@H]1O[C@@H](O[C@@H]2[C@H](OC(=O)/C=C/C=C/CC(O)/C(C)=C/C=C/CCC(C)CC)[C@@H](O)[C@]3(OCc4cc(O)cc(O)c43)O[C@@H]2CO)[C@H](O)[C@@H](O)[C@H]1O | MY1208 | 1 µg/mL
CC(O)C1NC(=O)C(CCc2ccc(O)cc2)NC(=O)C2C[C@@H](O)CN2C(=O)C(C(C)O)NC(=O)[C@@H](NC(=O)c2ccc(N3CCN(c4ccc(O)cc4)CC3)cc2)CCCNC(=O)C2C[C@H](N)CN2C1=O | ATCC CCH442 | 25 µg/mL
COc1ccc2c(Cc3ccc(C(C)(C)C)cc3)c3[n+](cc2c1OC)CCc1cc2c(cc1-3)OCO2 | ATCC64124 | 3.13 µg/mL
COc1ccccc1N1CCN(CCc2nnnn2[C@@H](C)[C@](O)(Cn2cncn2)c2ccc(F)cc2F)CC1 | V-01-191A-261 (resistant) | 8 µg/mL

5 of the rows above, restated:

smiles | strain or isolate | value
Brc1ccc(CO/N=C2\c3ccccc3OCC2n2cncn2)cc1 | ATCC 10231 | 8 µg/mL
O/N=C(\c1ccccc1)c1oc2ccc(Cl)cc2c1Cn1cncn1 | NRRL Y-27077 | 25 µg/mL
CSCCCC(N)C(=O)N[C@H]1[C@@H](O)[C@H](n2cnc3c(N)ncnc32)O[C@@H]1C(=O)O | FP633 | 25 µg/mL
Clc1ccc(C(Cn2ccnc2)OC/C=C/c2ccccc2)c(Cl)c1 | PR1 | 4 µg/mL
C[C@H]1[C@H](O)[C@@H](C)/C=C/C=C/C=C/C=C/C=C/C=C/C=C/[C@H](O[C@@H]2O[C@H](C)[C@@H](O)[C@H](N)[C@@H]2O)C[C@@H]2O[C@](O)(C[C@@H](O)C[C@@H](O)CC[C@H](O)[C@@H](O)C[C@@H](O)CC(=O)O[C@H]1C)C[C@H](O)[C@H]2C(=O)O | ATCC 64548 | 0.5 µg/mL